Test results reported in patent US7632666B2 (priority 2005, dated 2009).

Target: haloalkane dehalogenase DmbA (Mycobacterium bovis, UniProt Q9XB14, T96A)
Details: Table 2; 21° C., 50 mM Tris pH 8.2, enzyme 1 μM

CCOC(=O)C(Br)CC (racemic) [ethyl 2-bromobutyrate]
E-values DmbA: >200
